Compound potency records, mixed from different reports. Data source: NIAID ChemDB in PubChem.

Shared fields: growth or infection tests; agent: Mycobacterium tuberculosis

ECn: concentration that inhibits the pathogen or its effect by n%. An empty or dashed field is not shown. MIC bound comes from a single tested concentration. Conditions beyond the fields shown may differ between rows. Inhibition is in % at the dose shown (toxicity tests: loss of growth or viability). a–b is a range or a potency band. A number after MIC or MFC names an inhibition level or a share of isolates.

structure,changes,dose,endpoint,read by,strain or isolate,cell line,result
CCOc1ccccc1N=NC1C(=O)N(C(=O)CC(=O)Nc2ccccc2C)N=C1C,-,-,MIC bound,BACTEC,H37Rv,-,>12.5 µg/mL
Cc1ccc(/C=C2/NC(=S)NC2=O)cc1,-,6.25 µg/mL,inhibition,BACTEC,H37Rv,-,26%
CCCCCCCCCCC[C@@H](C[C@@H]1OC(=O)[C@H]1CCCCCC)OC(=O)[C@H](CC(C)C)NC=O,-,-,MIC,broth dilution / agar,H37Rv,-,5 µg/mL
O=C(O)c1cnc2c(ccc3[nH]cccc32)c1=O,-,-,MIC,BACTEC,H37Rv,-,≥12.5 µg/mL
COC(=O)c1ccc(/C=C2/NC(=S)NC2=O)cc1,-,6.25 µg/mL,inhibition,BACTEC,H37Rv,-,8%
CN(C)CCCN1c2ccccc2Sc2ccc(Cl)cc21,-,-,MIC,-,23587,-,10 µg/mL
O=C(/N=N/C(=O)N1CCCCC1)N1CCCCC1,-,12.5 µg/mL,inhibition,BACTEC,H37Rv,-,0%
Cc1c([N+](=O)[O-])cc(C(=O)NCc2ccccc2)cc1[N+](=O)[O-],-,-,MIC,broth dilution / turbidity / visual reading,H37Rv (ATCC 27294),-,6.35 µM
COc1cccc(/C=C2/NC(=S)NC2=O)c1OC,-,-,EC50,BACTEC,H37Rv,-,>6.25 µg/mL
CC[C@H]1OC(=O)[C@H](C)C(=O)[C@H](C)[C@@H](O[C@@H]2O[C@H](C)C[C@H](N(C)C)[C@H]2O)[C@](C)(OC)C[C@@H](C)C(=O)[C@H](C)[C@H]2N(CCCCCc3ccccc3)C(=O)O[C@]12C,-,-,MIC,-,-,-,3 µM
Clc1ccc(/C(Cn2ccnc2)=N/OCc2ccccc2)c(Cl)c1,-,-,MIC,-,CIP103471,-,0.5 µg/mL
COc1c(C)n(CCO)ccc1=O,-,-,MIC,BACTEC,H37Rv,-,≥12.5 µg/mL
Clc1ccc(/C(Cn2ccnc2)=N/OC/C=C/c2ccccc2)cc1,-,-,MIC,-,CIP103471,-,8 µg/mL
Cc1ccccc1/C=C1/SC(c2ccccc2C)N(C(=O)NCCCN2c3ccccc3Sc3ccccc32)C1=O,-,50 µg/mL,inhibition,agar,H37Rv,-,47%
COc1ccn2nc(C)c(C(=O)NCc3ccc(-c4ccc(OC(F)(F)F)cc4)c(C)c3)c2c1,-,-,MIC,fluorescence,H37Rv,-,<0.02 µg/mL
CC(C)=NNC(=O)c1cccnc1,-,-,MIC,BACTEC,H37Rv,-,≥12.5 µg/mL
Cc1ccccc1/C=N/C(=O)NCCCN1c2ccccc2Sc2ccccc21,-,50 µg/mL,inhibition,agar,H37Rv,-,38%
O=C1NC(=S)N/C1=C/c1ccc(-c2ccccc2)cc1,-,-,EC50,BACTEC,H37Rv,-,<6.25 µg/mL
CC(=O)c1cccc(NC(=O)/C=C/c2ccc([N+](=O)[O-])cc2)c1,-,-,MIC,visual reading,H37Rv,-,16 µg/mL
O=C(/N=C/c1ccccc1Cl)NCCCN1c2ccccc2Sc2ccccc21,-,50 µg/mL,inhibition,agar,H37Rv,-,35%
C/C=C(\C)c1cnc(CC(C)C)c(=O)[nH]1,-,12.5 µg/mL,inhibition,BACTEC,H37Rv,-,-15%
CN(C)C/C=C(/c1ccc(-c2ccc(Br)cc2)cc1)c1ccc([N+](=O)[O-])cc1,-,-,MIC,-,ALI 3415,-,36.5 µg/mL
COc1ccc(C(=O)NN2CCN(c3cc4c(cc3F)c(=O)c(C(=O)O)cn4C3CC3)CC2)cc1,-,-,MIC90,fluorescence,H37Rv,-,>50 µM
O=C1CSC(c2ccccc2[N+](=O)[O-])N1C(=O)NCCCN1c2ccccc2Sc2ccccc21,-,50 µg/mL,inhibition,agar,H37Rv,-,70%
COC(=O)c1nc(=S)[nH]c(C(=O)OC)c1C(=O)c1c(C)[nH]c2ccccc12,-,-,MIC bound,BACTEC,H37Rv,-,>12.5 µg/mL
O=C(NN1CCN(c2cc3c(cc2F)c(=O)c(C(=O)O)cn3C2CC2)CC1)c1ccc(C(F)(F)F)cc1,-,-,MIC90,fluorescence,H37Rv,-,>50 µM
Clc1c(-c2ccccc2)oc2nc3ccccc3nc12,-,-,MIC bound,BACTEC,H37Rv,-,>12.5 µg/mL
Fc1ccc(/C(Cn2ccnc2)=N\OCc2ccccc2)cc1,-,-,MIC,-,CIP103471,-,4 µg/mL
COc1c(C)c(C)c2[nH]c3ccccc3c2c1OC,-,-,MIC,GFP,H37Ra,-,>50 µg/mL
CN(C)CC=C(c1ccc(Br)cc1)c1ccc(-c2ccc(Br)cc2)cc1,-,-,MIC,-,ALI 3342,-,8.5 µg/mL
N[C@@H]1CN(c2c(F)cc3c(=O)c(C(=O)O)cn([C@@H]4C[C@@H]4F)c3c2Cl)CC12CC2,Gyrase Asp94Gly,-,MIC,resazurin,Clinical strain,-,0.125–0.5 µg/mL
CO[C@H]1/C=C/O[C@@]2(C)Oc3c(C)c(O)c4c(O)c(c(/C=N/N5CCN(C/C=C/c6ccccc6)CC5)c(O)c4c3C2=O)NC(=O)/C(C)=C\C=C\[C@H](C)[C@H](O)[C@@H](C)[C@@H](O)[C@@H](C)[C@H](OC(C)=O)[C@@H]1C,-,-,MBC,-,MTB14,-,0.25 µg/mL
OCNC(=S)c1cnccn1,-,-,MBC,-,KK11-20,-,25 µg/mL
CC1=NN(C(=O)c2ccccc2)C(=O)C1N=Nc1ccc([N+](=O)[O-])cc1,-,-,MIC,BACTEC,H37Rv,-,≥12.8 µg/mL
COc1ccc(/C=C2/S/C(=N/N=C/c3ccccc3O)NC2=O)cc1,-,-,MIC,visual reading,H37Rv,-,1 µg/mL
CC1NC(C(=O)O)Cc2cc(O)c(O)cc21,-,12.8 µg/mL,inhibition,BACTEC,H37Rv,-,2%
CN(C)C/C=C(\c1ccc(Cl)cc1)c1ccc(-c2ccc(Br)cc2)cc1,-,-,MIC,-,H37Rv,-,5 µg/mL
O=C(O)c1cn(C2CC2)c2cc(N3CCN(Nc4ccc(F)cc4)CC3)c(F)cc2c1=O,-,-,MIC90,fluorescence,H37Rv,-,5.41 µM
CC[C@H]1OC(=O)[C@H](C)[C@@H](O[C@H]2C[C@@](C)(OC)[C@@H](O)[C@H](C)O2)[C@H](C)[C@@H](O[C@@H]2O[C@H](C)C[C@H](N(C)C)[C@H]2O)[C@](C)(O)C[C@@H](C)/C(=N\OCOCCOC)[C@H](C)[C@@H](O)[C@]1(C)O,-,-,MIC,-,-,-,32 µM
Fc1ccc(/C(Cn2ccnc2)=N\OCc2cccc3ccccc23)cc1,-,-,MIC,-,CIP103471,-,8 µg/mL
O=C1NC(=S)N/C1=C/c1cccc(OCc2ccc(Cl)cc2)c1,-,-,EC50,BACTEC,H37Rv,-,<6.25 µg/mL
CN(C)c1ccc(/C=c2\s/c(=C/C(=O)c3ccccc3)[nH]c2=O)cc1,-,-,MIC,visual reading,Clinical isolate,-,>64 µg/mL
CC(=O)OCC1OC2OC(C)(C)OC2C1NC(=O)C(F)(F)F,-,-,MIC bound,BACTEC,H37Rv,-,>12.5 µg/mL
COc1ccc(C2SCC(=O)N2C(=O)NCCCN2c3ccccc3Sc3ccccc32)cc1,-,50 µg/mL,inhibition,agar,H37Rv,-,50%
CN(C)C/C=C(/c1ccc(Br)cc1)c1ccc(-c2ccc(Br)cc2)cc1,-,-,MIC,-,ALI 452,-,≤4 µg/mL
Cc1cc(C)c(-c2cc(C(O)C3OC4OC(C)(C)OC4C3O)on2)c(C)c1,-,6.25 µg/mL,inhibition,resazurin,H37Rv,-,3%
COc1c(C)c(C)c2[nH]c3ccc(Cc4c(C)c(OC)c(O)c5c4[nH]c4ccccc45)cc3c2c1O,-,-,MIC,GFP,H37Ra,-,>50 µg/mL
O=C1NC(=S)N/C1=C/c1cccc(C(F)(F)F)c1,-,6.25 µg/mL,inhibition,BACTEC,H37Rv,-,42%
CSC(=S)Nc1nc2ccc(Cl)cc2s1,-,-,MIC,BACTEC,H37Rv,-,32 µg/mL
CO[C@H]1/C=C/O[C@@]2(C)Oc3c(C)c(O)c4c(O)c(c(/C=N/N5CCN(C)CC5)c(O)c4c3C2=O)NC(=O)/C(C)=C\C=C\[C@H](C)[C@H](O)[C@@H](C)[C@@H](O)[C@@H](C)[C@H](OC(C)=O)[C@@H]1C,-,-,MIC,fluorescence,H37Rv,-,0.02 µg/mL
CC[C@H]1OC(=O)[C@H](C)C(=O)[C@H](C)[C@@H](O[C@@H]2O[C@H](C)C[C@H](N(C)C)[C@H]2O)[C@](C)(OC)C[C@@H](C)C(=O)[C@H](C)[C@H]2N(NCCCc3ccnc4ccccc34)C(=O)O[C@]12C,-,-,MIC,-,-,-,4 µM
COc1ccn2nc(C)c(C(=O)NCc3ccc(-c4ccc(OC(F)(F)F)cc4)c(OC)c3)c2c1,-,-,MIC,fluorescence,H37Rv,-,0.007 µg/mL
O=C1NC(=S)N/C1=C/c1ccc2c(c1)OCO2,-,-,EC50,BACTEC,H37Rv,-,>6.25 µg/mL
Cc1ccc(NC2=CC(=O)c3ccccc3C2=O)cc1,-,-,MIC,visual reading,H37Rv,-,2 µg/mL
CC[C@H]1OC(=O)[C@H](C)C(=O)[C@H](C)[C@@H](O[C@@H]2O[C@H](C)C[C@H](N(C)C)[C@H]2O)[C@](C)(OC)C[C@@H](C)/C(=N\OCOCc2ccccc2)[C@H](C)[C@@H](O)[C@]1(C)O,-,-,MIC,-,-,-,>128 µM
O=C1NC(=S)N/C1=C/c1ccc([N+](=O)[O-])cc1,-,-,EC50,BACTEC,H37Rv,-,<6.25 µg/mL
Fc1ccc(/C(Cn2ccnc2)=N\OCc2ccc(-c3ccccc3)cc2)cc1,-,-,MIC,-,CIP103471,-,8 µg/mL
NC(=S)c1cnccn1,-,-,MIC,-,KK11-20,-,100 µg/mL
COc1ccc2[nH]c3c(C)c(C)c(OC)c(O)c3c2c1,-,-,MIC,GFP,H37Ra,-,>50 µg/mL
COc1ccc(/C=N/C(=O)NCCCN2c3ccccc3Sc3ccccc32)cc1,-,50 µg/mL,inhibition,agar,H37Rv,-,40%
Cc1ncc(-c2c[nH]c3ccccc23)o1,-,-,MIC,GFP,H37Ra,-,25 µg/mL
O=C(Nc1ccc(F)cc1)c1cc([N+](=O)[O-])cc([N+](=O)[O-])c1,-,-,MIC,broth dilution / turbidity / visual reading,H37Rv (ATCC 27294),-,1.63 µM
Nc1ccc(NC2=C(N3CCCCC3)C(=O)c3ccccc3C2=O)cc1,-,-,MIC,visual reading,Clinical isolate,-,16 µg/mL
CO[C@H]1/C=C/O[C@@]2(C)Oc3c(C)c(O)c4c(O)c(c(/C=N/N5CCN(C)CC5)c(O)c4c3C2=O)NC(=O)/C(C)=C\C=C\[C@H](C)[C@H](O)[C@@H](C)[C@@H](O)[C@@H](C)[C@H](OC(C)=O)[C@@H]1C,-,-,MIC,-,26 isolates drug-susceptible,-,1 µg/mL
O=C(c1cc2ccccc2o1)N1CCN(Cc2ccccc2)CC1,-,-,MIC,BACTEC,H37Rv,VERO,12.5 µg/mL
CC[C@H]1OC(=O)[C@H](C)C(=O)[C@H](C)[C@@H](O[C@@H]2O[C@H](C)C[C@H](N(C)C)[C@H]2O)[C@](C)(OC)C[C@@H](C)C(=O)[C@H](C)[C@H]2N(CCCn3cnc4c3c(=O)n(C)c(=O)n4C)C(=O)O[C@]12C,-,-,MIC,-,-,-,>128 µM
C#CC(C)(C)OCCCCOc1cc(O)c2c(=O)c3ccccc3n(C)c2c1,-,-,MIC bound,resazurin,H37Rv,-,>6.25 µg/mL
O=C(O)c1cn(C2CC2)c2cc(N3CCN(/N=C/c4ccc(F)cc4)CC3)c(F)cc2c1=O,-,-,MIC90,fluorescence,H37Rv,-,0.86 µM
C=C1C(=O)O[C@@H]2C[C@H]1CC[C@]1(C)O[C@H]1CC/C(C)=C/CC[C@]2(C)O,-,12.5 µg/mL,inhibition,BACTEC,H37Rv,-,35%
C/C(=C1\NC(=S)NC1=O)c1ccccc1,-,-,EC50,BACTEC,H37Rv,-,>6.25 µg/mL
O=C1CCc2ccccc2-c2ccccc21,-,-,MIC bound,BACTEC,H37Rv,-,>12.5 µg/mL
COc1cccc(/C=C2/SC(c3cccc(OC)c3)N(C(=O)NCCCN3c4ccccc4Sc4ccccc43)C2=O)c1,-,50 µg/mL,inhibition,agar,H37Rv,-,63%
Cc1cc(Cc2cc(C)c(NC(=O)C(=O)C3C(=O)NC(=S)NC3=O)c(C(C)C)c2)cc(C(C)C)c1NC(=O)C(=O)C1C(=O)NC(=S)NC1=O,-,6.25 µg/mL,inhibition,resazurin,H37Rv,-,-9%
CN(C)CC=C(c1ccccc1)c1ccc(-c2ccc(Br)cc2)cc1,-,-,MIC,-,ALI 544,-,10 µg/mL
CCCC12C=C(OC)C(=O)C=C1OC(c1cc(OC)c(OC)c(OC)c1)C2C,-,12.5 µg/mL,inhibition,BACTEC,H37Rv,-,10%
O=C(NN1CCN(c2cc3c(cc2F)c(=O)c(C(=O)O)cn3C2CC2)CC1)c1ccc(Cl)cc1,-,-,MIC90,fluorescence,H37Rv,-,>50 µM
O=c1sc(-c2nc3ccccc3[nH]2)c(/N=C/c2ccccc2)n1-c1ccccc1,-,-,MIC bound,BACTEC,H37Rv,-,>12.5 µg/mL
COc1ccc(-n2c(O)c(/C=C3\C=CC=N3)c(=O)[nH]c2=O)cc1,-,-,MIC,visual reading,H37Rv,-,16 µg/mL

7 of the rows above, restated:

structure | changes | dose | endpoint | read by | strain or isolate | cell line | result
Cc1ccccc1/C=N/C(=O)NCCCN1c2ccccc2Sc2ccccc21 | - | 50 µg/mL | inhibition | agar | H37Rv | - | 38%
O=C1CSC(c2ccccc2[N+](=O)[O-])N1C(=O)NCCCN1c2ccccc2Sc2ccccc21 | - | 50 µg/mL | inhibition | agar | H37Rv | - | 70%
COc1ccc2[nH]c3c(C)c(C)c(OC)c(O)c3c2c1 | - | - | MIC | GFP | H37Ra | - | >50 µg/mL
CCCCCCCCCCC[C@@H](C[C@@H]1OC(=O)[C@H]1CCCCCC)OC(=O)[C@H](CC(C)C)NC=O | - | - | MIC | broth dilution / agar | H37Rv | - | 5 µg/mL
O=C1CCc2ccccc2-c2ccccc21 | - | - | MIC bound | BACTEC | H37Rv | - | >12.5 µg/mL
CN(C)c1ccc(/C=c2\s/c(=C/C(=O)c3ccccc3)[nH]c2=O)cc1 | - | - | MIC | visual reading | Clinical isolate | - | >64 µg/mL
O=C(NN1CCN(c2cc3c(cc2F)c(=O)c(C(=O)O)cn3C2CC2)CC1)c1ccc(C(F)(F)F)cc1 | - | - | MIC90 | fluorescence | H37Rv | - | >50 µM